{
  "source": "PubChem BioAssay",
  "key": {"[1]": {"assay": "nonselective effects on VP16 transactivation – cell-based, luminescence, CHO-S, high throughput, counter-screen for NR2E3 agonist project, confirmation (AID 624379;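 active = mean inhibition above a cutoff equal to the average over all tested compounds plus one standard deviation, cut at about 70% in these data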;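 note: 0% = DMSO with VP16-transfected cells and 100% = DMSO with cells lacking VP16; higher means less reporter light so more repression of VP16 activity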)", "settings": "CHO-S GAL4-VP16 luciferase reporter, at 3.98 µM, stronger effect = higher value"}, "[2]": {"assay": "VP16-driven transactivation reporter suppression – cell-based, luminescence, HEK293, counter-screen for COUP-TFII antagonist project (AID 687007; in the data active = inhibition above about 13%)", "settings": "HEK293 Gal4-VP16 luciferase reporter, at 8.5 µM, stronger effect = higher value"}, "[3]": {"assay": "reduced OD of V66 E. coli with T4 gene 2 phage – absorbance, RecBCD inhibitor project, confirmation (AID 651982;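 active = mean inhibition over triplicates exceeding the hit threshold derived in the original primary screen, cut at about 11% in these data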)", "settings": "E. coli V66 + T4 2- phage, growth OD; at 11.9 µM; stronger effect = higher value"}, "[4]": {"assay": "bacterial growth inhibition – absorbance, high throughput, counter-screen for RecBCD inhibitor project (AID 651983);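 note: E. coli strain V66 grown with compound alone and no phage infection; 0% = bacteria with DMSO vehicle only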", "settings": "E. coli viability, absorbance (OD) growth; at 11.9 µM; stronger effect = higher value"}, "[5]": {"assay": "reduced optical density, T4-challenged addAB+ bacteria – absorbance, E. coli V3065, T4 phage, counter-screen for RecBCD inhibitor project, confirmation (AID 651984;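 active = mean inhibition above the solvent-only control wells' mean plus 3 SD, cut at about 22% in these data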;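 note: higher means less bacterial growth from phage killing when AddAB is blocked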)", "settings": "E. coli expressing H. pylori AddAB + T4 phage, OD growth; at 11.9 µM; stronger effect = higher value; gene 2 mutant T4, recBCD-deleted host"}, "[6]": {"test_system": "HIV-1 integrase (multimerization)", "assay": "stimulation of HIV-1 integrase oligomerization – biochemical, TR-FRET, counter-screen for LEDGF/p75 integration inhibitor project (AID 1053131; in the data active = activation above about 8.9%)", "settings": "TR-FRET HIV-1 integrase multimerization, at 7.7 µM, stronger effect = higher value"}},
  "note": "The list shows a part of the results, in another mix than the full data. Activity calls are given as the source filed them. Cut-off read from the data, not from the text of the source, unless noted: active = inhibition above about 20%; inactive = the rest.",
  "data": [
    {"smiles": "C[N+]1=C2C=CC=CC=C2SC12C([N+](=O)[O-])=CC([N+](=O)[O-])=C[C-]2[N+](=O)[O-]", "note": "(stereo unspecified)", "values": [
      {"measurement": "inhibition", "setting": "[1]", "result": "inactive: -7.84%"},
      {"measurement": "inhibition", "setting": "[2]", "result": "active: 91.5%"}
    ]},
    {"smiles": "CC(=O)NC(SC(=S)N(C)C)C(Cl)(Cl)Cl", "note": "(stereo unspecified)", "values": [
      {"measurement": "inhibition", "setting": "[1]", "result": "inactive: -17.4%"}
    ]},
    {"smiles": "O=[N+]([O-])c1cccc2n[nH]nc12", "values": [
      {"measurement": "inhibition", "setting": "[3]", "result": "active: 11.5%"},
      {"measurement": "inhibition", "setting": "[4]", "result": "inactive: 13%"},
      {"measurement": "inhibition", "setting": "[5]", "result": "active: 84.5%"}
    ]},
    {"smiles": "O=C(O)c1ccccc1[As](=O)(O)O", "values": [
      {"measurement": "inhibition", "setting": "[3]", "result": "active: 65.8%"},
      {"measurement": "inhibition", "setting": "[4]", "result": "active: 65.4%"},
      {"measurement": "inhibition", "setting": "[5]", "result": "active: 27.3%"}
    ]},
    {"smiles": "Nc1cccc2c([As](=O)(O)O)cccc12", "values": [
      {"measurement": "activation", "setting": "[6]", "result": "active: 102%"}
    ]},
    {"smiles": "Nc1cccc2ccc([As](=O)(O)O)cc12", "values": [
      {"measurement": "activation", "setting": "[6]", "result": "active: 61.6%"}
    ]}
  ]
}
